Measured values taken from article PMC10813298, “Evidence of Guanidines Potential against Leishmania (Viannia) braziliensis: Exploring In Vitro Effectiveness, Toxicities and of Innate Immunity Response Effects” (Biomolecules, 2023).

What was measured:
Format in all cases: cell-based, Leishmania (Viannia) braziliensis
[1] = test system: L. (V.) braziliensis intramacrophage amastigotes; experiment: Treatment of RAW 264.7 macrophages infected with L. (V.) braziliensis (intramacrophage amastigotes); settings: for SI Intramacrophage Amastigotes: SI = CC50/EC50
Description: RAW 264.7 macrophages (1 × 10^6 cells/mL) were seeded in 24-well plates containing sterile glass slides, and approximately 500 μL of supplemented DMEM medium was added. The plates were then incubated at 37 °C with 5% CO2 for 4 h to facilitate cell adhesion. Following the adhesion period, promastigotes (1 × 10^7) in the stationary growth phase were introduced into the wells for infection. The plates were then incubated for an additional 4 h to allow infection to take place. Afterward, the medium was carefully removed, and the wells were washed three times with PBS to eliminate any nonadherent cells. Fresh medium containing serial concentrations of the test substances, ranging from 0.78 to 25 μmol/L, was added to the wells. Additionally, a range of concentrations of glucantime (25 to 800 μmol/L) was included for comparison. The treatment was carried out for 72 h in an incubator at 37 °C with 5% CO2. At the end of the 72 h treatment period, the glass lamina was removed from each well and stained using rapid panoptic stain (Laborklin®, Curitiba, Paraná, Brazil). The stained samples were mounted on permanent slides using Entelan® (Sigma-Aldrich, St. Louis, MO, USA), and antileishmanial activity was assessed by measuring the infection rate and counting the number of amastigotes per macrophage. Quantification was performed using light microscopy at a magnification of 1000×, and a total of 300 macrophages per lamina were evaluated. As a negative control, half DMEM containing 0.2% DMSO was used.

[2] = test system: L. (V.) braziliensis promastigotes; experiment: Antileishmanial activity on promastigotes (MTT, 72 h); settings: for SI Promastigotes: SI = CC50/IC50
Description: Leishmania (Viannia) braziliensis (MHOM/BR/1975/M2903) was utilized in this study. The promastigote forms of these parasites were maintained in vitro in Schneider’s insect medium pH 7.2, supplemented with 20% fetal bovine serum (FBS) and 1% antibiotic solution (100 U/mL penicillin and 100 μg/mL streptomycin) at a temperature of 26 ± 1 °C in a Biochemical Oxygen Demand (BOD) incubator (Eletrolab EL202, São Paulo, Brazil), with regular aeration and weekly subculturing.
(§1) Assessment of antileishmanial activity against promastigote and amastigote axenic forms of parasites followed the method described by Rodrigues et al. and involved the following steps: L. (V.) braziliensis parasites were cultured in 96-well plates at a concentration of 1 × 10^6 parasites per well. Each well contained 100 μL of supplemented Schneider medium. Serial concentrations of the test substances, ranging from 50 to 1.56 μmol/L, were prepared. Reference drugs, meglumine antimoniate (20 to 40,000 μmol/L) and amphotericin B (0.031 to 2 μmol/L) were also prepared. These concentrations were used to assess the effects of the test substances in comparison to reference drugs. The plates were incubated in a BOD incubator at 26 °C for 72 h. After the 72 h incubation period, 10 μL of MTT (5 mg/mL) was added to each well. The plates were then incubated for an additional 4 h. At the end of the 4 h incubation, formazan crystals formed by the reduction of the MTT salt were solubilized by adding 50 μL of a 10% (w/v) sodium dodecyl sulfate (SDS) solution in distilled water. Absorbance was measured using a microplate reader at a wavelength of 540 nm (Biosystems ELx800 model, Curitiba, PR, Brazil). This measurement quantified the metabolic activity of the parasites, which is indicative of their viability and proliferation. Schneider medium containing 0.2% DMSO was used as a negative control in the tests.
The different mean concentrations for promastigotes (IC50) and macrophages (CC50) were calculated using nonlinear regression. For comparisons between groups, ANOVA analysis of variance was performed followed by Tukey’s test in a statistical program, taking the p-value < 0.05 as the maximum level of statistical significance.

[3] = test system: L. (V.) braziliensis axenic amastigotes; experiment: Antileishmanial activity on axenic amastigotes (MTT, 72 h); settings: SI = CC50/EC50
Description: In vitro amastigogenesis was performed by transformation from promastigotes at the stationary phase of growth to obtention axenic amastigotes. This process involved altering the culture conditions to Schneider’s medium with a pH of 5.5, supplementing them with 5% FBS, and incubating them at a temperature of 32 °C [17].
as §1

Row | Compound | SI Intramacrophage Amastigotes [1] | SI Promastigotes [2] | SI Axenic Amastigotes [3] | higher safety margin in relation to macrophages than meglumine antimoniate ([1]; ratio of selectivity index values) [fold] | SI (margin of safety), summary statement for reference drugs ([2]; all parasite forms)
1 | C[C@@H]1[C@H](O)[C@@H](C)/C=C/C=C/C=C/C=C/C=C/C=C/C=C/[C@H](O[C@@H]2O[C@H](C)[C@@H](O)[C@H](N)[C@@H]2O)C[C@@H]2O[C@](O)(C[C@@H](O)C[C@@H](O)[C@H](O)CC[C@@H](O)C[C@@H](O)CC(=O)O[C@H]1C)C[C@H](O)[C@H]2C(=O)O [Amphotericin B, reference compound] | 1.6 | 2.0 | 1.4 |  | 
2 | O=C(/N=C(/NCc1ccccc1)Nc1ccc([N+](=O)[O-])cc1)c1ccccc1 [LQOF-G1, (Z)-N-benzoyl-N-benzyl-N-(4-nitrophenyl)guanidine] | 40.3 | 31.9 | 34.5 | 21.56 | 
3 | O=C(/N=C(/NCc1ccccc1)Nc1ccc(Br)cc1)c1ccccc1 [LQOF-G2, (Z)-N-benzoyl-N-benzyl-N-(4-bromophenyl)guanidine] | 38.9 | 30.4 | 32.4 |  | 
4 | CC(C)(C)c1ccc(N/C(=N\C(=O)c2ccccc2)NCc2ccccc2)cc1 [LQOF-G6, (Z)-N-benzoyl-N-benzyl-N-(4-tert-butylphenyl)guanidine] | 39.5 | 26.0 | 35.6 |  | 
5 | O=C(/N=C(/NCc1ccccc1)Nc1ccc(I)cc1)c1ccccc1 [LQOF-G7, (Z)-N-benzoyl-N-benzyl-N-(4-iodophenyl)guanidine] | 22.2 | 25.4 | 30.0 |  | 
6 | O=C(/N=C(/NCc1ccc(Cl)cc1Cl)Nc1ccc(Br)cc1)c1ccccc1 [LQOF-G32, (Z)-N-benzoyl-N-(2,4-di-chlorobenzyl)-N-(4-bromophenyl)guanidine] |  | 16.0 |  |  | 
7 | O=C(/N=C(/NCc1ccccc1)Nc1ccccc1Br)c1ccccc1 [LQOF-G35] |  | 8.9 |  |  | 
8 | Meglumine antimoniate [Meglumine At, reference compound] |  | 0.04 |  |  | ≤ 2.0
